A mixed list of measured activities; the numbers were collected in NIAID ChemDB.

Common to all: growth or infection tests; species: HIV-1; cell line: TZM-bl; read-out: EC50

Lines come from different laboratories, so protocols vary.

SMILES,strain or isolate,changes,read by,setting,result
Cc1ccc(N/N=C/c2ccc3cccc(O)c3n2)c(C)c1,VB59,-,luciferase,-,309 µM
NC(N)=NCC(=O)NCCN1CCC(NC(=O)C(=O)Nc2ccc(Cl)cc2)CC12CCCCC2,YTA,-,single cycle,-,2.6 µM
N#CCc1ccc(Nc2nc(N)n(S(=O)(=O)c3cccc4ccc(CC#N)cc34)n2)cc1,IIIB,Y181C/K103N,luciferase / RT activity,-,0.238 µM
COc1cc2c(=O)[nH]c(-c3ccc[nH]3)nc2c(OC)c1OC,NL4-3,-,luciferase,-,6.212 µM
C[C@@H]1CCO[C@H]2Cn3cc(C(=O)NCc4ccc(F)cc4F)c(=O)c(O)c3C(=O)N12,LAI,-,luminescence,-,0.00066 µM
O=Cc1ccc2cccc(O)c2n1,UG070,-,luciferase,-,10.57 µM
Cc1cc(-c2ccc(C(F)(F)F)cn2)[nH]c1C(=O)NC(C)(CCN)c1nc(CO)cs1,HXB2,-,luciferase,pseudotyped,2.6 µM
Cc1ccc(C)c(N/N=C/c2ccc3cccc(O)c3n2)c1,VB59,-,luciferase,-,9.61 µM
Cc1ccnc2c1NC(=O)c1cccnc1N2C1CC1,NL4-3,-,luciferase,-,0.0279 µM
COc1ccc(/C=C/c2cc(Cl)c3ccccc3n2)c(OC)c1,UG070,-,luminescence,-,3.99 µM
COc1ccc(NC(=O)/C=C/c2ccc3cccc(OC)c3n2)cc1,UG070,-,luminescence,-,10.8 µM
COc1cc(/C=C/c2cc(Cl)c3cc(Cl)ccc3n2)cc(OC)c1,UG070,-,luminescence,-,81.06 µM
O=C(Nc1ccc(Cl)c(F)c1)C(=O)NC1CCNC2(CCCCC2)C1,YTA,-,single cycle,-,27 µM
COc1cccc2ccc(-c3nnc(-c4ccc(C(C)(C)C)cc4)o3)nc12,UG070,-,luminescence,-,63.16 µM
CC(=O)Oc1ccc(CCC(=O)CCc2ccc(NC(=O)c3ccc(C)cc3)cc2)cc1OC(C)=O,BaL,-,luciferase,-,23.14 µM
N=C1Sc2ccccc2C2=NCCCN12,92UG024,-,β-galactosidase,-,0.33 µM
NCCC(NC(=O)c1ccc(-c2ccc(F)cn2)[nH]1)c1nc(CO)cs1,HXB2,-,luciferase,-,>11 µM
Oc1cccc2ccc(/C=N/Nc3ccc(F)cc3)nc12,UG070,-,luciferase,-,68.86 µM
N=C(N)N1CCC(NC(=O)C(=O)Nc2ccc(Cl)cc2)CC12CCCCC2,YTA,-,single cycle,-,13 µM
Clc1ccc2nc(/C=C/c3ccc(N4CCOCC4)cc3)cc(Cl)c2c1,UG070,-,luminescence,-,97.85 µM
C[C@@H]1O[C@H]2O[C@H]3[C@@H](C)OC(c4ccc5c(c4O)C(=O)c4ccc(C[C@@](C)(O)CC(=O)O)c(O)c4C5=O)C[C@H]3O[C@H]2CC1=O,HXB2,-,visual reading / absorbance,pseudotyped,21.6 µM
NCCC(NC(=O)c1ccc(-c2ccc(C(F)(F)F)nn2)[nH]1)c1nc(CO)cs1,HXB2,-,luciferase,pseudotyped,>12 µM
N#CCN1CCC(NC(=O)C(=O)Nc2ccc(Cl)cc2)CC12CCCCC2,YTA,-,single cycle,-,5.2 µM
Cc1ccnc2c1NC(=O)c1cccnc1N2C1CC1,SF162,-,luciferase,-,0.03375 µM
CC1(C)Oc2cc(O)c3c(=O)c4ccccc4oc3c2[C@@H](OC(=O)C23CCC(C)(C(=O)O2)C3(C)C)[C@H]1OC(=O)C12CCC(C)(C(=O)O1)C2(C)C,NL4-3,-,luciferase,-,>4 µM
CC(C)c1c(Cc2ccccc2)n(COCc2ccccc2)c(=O)[nH]c1=O,A17,K103N/Y181C,p24 / ELISA,-,>10 µM
Cc1cc(C)cc(N/N=C/c2ccc3cccc(O)c3n2)c1,UG070,-,luciferase,-,50.63 µM
CC(C)(C)OC(=O)NCCCCC(=O)NCCN1CCC(NC(=O)C(=O)Nc2ccc(Cl)cc2)CC12CCCCC2,YTA,-,single cycle,-,11 µM
N#CCc1ccc2cccc(S(=O)(=O)n3nc(Nc4ccc(C#N)c(Cl)c4)nc3N)c2c1,IIIB,Y181C/K103N,luciferase / RT activity,-,>1 µM
C[C@@H]1CCO[C@H]2Cn3cc(C(=O)NCc4ccc(F)cc4F)c(=O)c(O)c3C(=O)N12,NL4-3,M184I,luciferase,-,0.001 µM
COc1cccc2ccc(-c3nnc(-c4ccc(C)cc4)o3)nc12,VB59,-,luminescence,-,35.89 µM
O=C(N/N=C/c1c(O)ccc2ccccc12)c1ccc(O)cc1O,92US657,-,fluorescence,-,7.3 µM
COC[C@@H](c1ccc(C(F)(F)F)cc1)N1CCN(C2(C)CCN(C(=O)c3c(C)ncnc3C)CC2)C[C@@H]1C,S,G514V V535M,-,-,0.0052 µM
O=C(CCC(=O)n1cnc2ccccc21)n1cnc2ccccc21,IIIB,-,luciferase,-,40 µM
Oc1cccc2ccc(/C=N/Nc3ccc(F)cc3F)nc12,VB59,-,luciferase,-,42.87 µM
Cc1cn(CC(=O)Nc2ccc([N+](=O)[O-])cn2)c(=O)[nH]c1=O,IIIB,-,luciferase,-,17.6 µM
COc1ccccc1-c1nnc(-c2ccc3cccc(OC)c3n2)o1,UG070,-,luminescence,-,61.98 µM
NCC(=O)NCCN1CCC(NC(=O)C(=O)Nc2ccc(Cl)cc2)CC12CCCCC2,YTA,-,single cycle,-,9.8 µM
Cc1cn(C2CC(n3nnc(C4CC4)c3C3(C(F)(F)F)OC(=O)Nc4ccc(Cl)cc43)C(CO)O2)c(=O)[nH]c1=O,UG070,-,luminescence,-,8.83 µg/mL
CC(=O)Oc1ccc(/C=C/C(=O)CCc2ccc(NC(=O)c3ccc([N+](=O)[O-])cc3)cc2)cc1OC(C)=O,BaL,-,luciferase,-,16.25 µM
Cc1cn(CC(=O)Nc2ccccn2)c(=O)[nH]c1=O,ADA5,-,luciferase,-,26 µM
Cc1ccccc1N/N=C/c1ccc2cccc(O)c2n1,UG070,-,luciferase,-,>150 µM
COc1cccc2c(=O)c3c(OC)cc4c(c3oc12)[C@@H](OC(=O)C12CCC(C)(C(=O)O1)C2(C)C)[C@@H](OC(=O)C12CCC(C)(C(=O)O1)C2(C)C)C(C)(C)O4,NL4-3,-,luciferase,-,>4 µM
CC(C)(N)CC(NC(=O)c1ccc(-c2ccc(C(F)(F)F)cn2)[nH]1)c1nc(CO)cs1,HXB2,-,luciferase,pseudotyped,0.58 µM
O=C(Cn1ccc(=O)[nH]c1=O)Nc1ccc(Br)cn1,VB59,-,luciferase,-,134 µM
Cc1ccnc2c1NC(=O)c1cccnc1N2C1CC1,SF162,-,luciferase / luminescence,-,0.04152 µM
NCCC(NC(=O)c1ccc(-c2ccc(C(F)F)cn2)[nH]1)c1nc(CO)cs1,HXB2,-,luciferase,pseudotyped,>25.4 µM
C[C@@H]1CCO[C@H]2Cn3cc(C(=O)NCc4ccc(F)cc4F)c(=O)c(O)c3C(=O)N12,-,I60M/V72I/L74F/V75I,luciferase / luminescence,-,0.0007 µM
COc1cccc2ccc(/C=C/C(=O)Nc3ccc(Cl)cc3)nc12,UG070,-,luminescence,-,>130 µM
O=C(CCC(=O)Nc1ccc(Br)cn1)Nc1ccc(Br)cn1,UG070,-,luciferase,-,35.04 µM
CCN(CC)Cc1cnc2c(C(=O)Nc3ccc4[nH]ncc4c3)cnn2c1,NL4-3,-,luciferase,-,17.2 µM
Fc1ccc(N=Cc2cc3ccccc3nc2Nc2ccc(F)cc2)cc1,UG070,-,luminescence,-,115 µM
COc1ccc(/C=C/c2cc(Cl)c3cc(Cl)ccc3n2)c(OC)c1,UG070,-,luminescence,-,0.61 µM
N#C/C=C/c1ccc2cccc(S(=O)(=O)n3nc(Nc4ccc(C#N)c(Cl)c4)nc3N)c2c1,IIIB,-,luciferase / RT activity,-,0.001745 µM
N#CCN(CC#N)CCN1CCC(NC(=O)C(=O)Nc2ccc(Cl)cc2)CC12CCCCC2,YTA,-,single cycle,-,5.2 µM
Clc1ccc2nc(/C=C/c3ccco3)cc(Cl)c2c1,UG070,-,luminescence,-,114 µM
CCCCCCCCCCCCCCCCCC1N[C@@H](CO)[C@H](O)[C@H](O)[C@@H]1O,89.6,-,luciferase,-,3.69 µM
COc1cccc2ccc(/C=C/C(=O)Nc3ccccc3F)nc12,-,-,entry / luminescence,-,1.4 µM
CCC(=O)c1ccc(F)c([C@@H]2C[C@@H]2NC(=O)Nc2ccc(C#N)cn2)c1O,LAI,NNRTI-resistant (RT Y181I),β-galactosidase / luminescence,-,≥0.0625 µM
Cc1cc(/C=C/C#N)cc(C)c1Nc1ccnc(Nc2ccc(C#N)cc2)n1,LAI,3'-PPT mutations,luminescence,-,0.00052 µM
Fc1ccc(/C=C/c2cc(Cl)c3ccccc3n2)cc1,VB59,-,luminescence,-,50.52 µM
CC(C)=CCc1cc(C(O)C2NC(=O)CNC(=O)C(Cc3c[nH]c4ccccc34)NC(=O)C3CCCN3C(=O)CNC(=O)C(C(C)C)CC(=O)CNC2=O)ccc1O,HXB2,-,visual reading / absorbance,pseudotyped,>100 µg/mL
O=c1oc2c(O)c(O)cc3c(=O)oc4c(O)c(O)cc1c4c23,JR-CSF,-,luciferase,48 h,34.11 µM
Cc1nnc(-c2cccc(-c3cccc(C(=O)N4CCCCC4)c3)c2)o1,CNE8,-,luminescence,pseudotyped,>30 µM
CC(=O)Oc1ccc(/C=C/C(=O)CCc2ccc(NC(=O)c3ccc(C)cc3)cc2)cc1OC(C)=O,BaL,-,luciferase,-,11.22 µM
CCN(CC)c1ccc(/C=N/NC(=O)c2ccc(O)cc2O)c(O)c1,92US657,-,fluorescence,-,0.9 µM
O=C(Cn1cnc2ccccc21)Nc1ccccn1,IIIB,-,luciferase,-,381 µM
Oc1cccc2ccc(/C=N/Nc3ccc(Cl)cc3)nc12,UG070,-,luciferase,-,73.18 µM
COc1cc(-c2ccc(C(=O)NC(CCN)c3nc(CO)cs3)[nH]2)ccn1,HXB2,-,luciferase,pseudotyped,>11 µM
COc1ccc(N/N=C/c2ccc3cccc(O)c3n2)cc1,UG070,-,luciferase,-,6.27 µM
Clc1ccc2nc(/C=C/c3ccc(N4CCCCC4)cc3)cc(Cl)c2c1,UG070,-,luminescence,-,94.44 µM

A second listing of 4 rows from above:

SMILES	strain or isolate	changes	read by	setting	result
Clc1ccc2nc(/C=C/c3ccc(N4CCOCC4)cc3)cc(Cl)c2c1	UG070	-	luminescence	-	97.85 µM
Fc1ccc(/C=C/c2cc(Cl)c3ccccc3n2)cc1	VB59	-	luminescence	-	50.52 µM
N=C(N)N1CCC(NC(=O)C(=O)Nc2ccc(Cl)cc2)CC12CCCCC2	YTA	-	single cycle	-	13 µM
N#C/C=C/c1ccc2cccc(S(=O)(=O)n3nc(Nc4ccc(C#N)c(Cl)c4)nc3N)c2c1	IIIB	-	luciferase / RT activity	-	0.001745 µM

ECn: concentration that inhibits the pathogen or its effect by n%. Blank or dashed fields: not listed here.